Reference: patent US11603552B2 (priority 2020, dated 2023)

Target: MERS PLpro (Middle East respiratory syndrome-related coronavirus, UniProt K9N7C7)
Assay: substrate cleavage by coronavirus PLpro

hTyr-Dap-G-G (SEQ ID NO. 13) was tested, and the “recognition of the substrate” value was “do not recognize”.
